PubChem BioAssay AID504761 | Drosophila RNAi Screening Center, 2011
The deposit covers about 22,000 reagents; shown is an unselected part of those with a known target gene and a result. Over the whole deposit, 116 (0.52%) were called active. 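Calls depend on retest data that are not deposited; infection was ranked per plate without normalising between plates; the unit of the infection score is not given.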 Raw values are not corrected between plates. Reagents against one gene are numbered here. Not stated in the record: the amount of reagent, the time to read-out.

Screen: 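Genome-wide fly cell screen for genes dengue virus requires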 (primary screen)
System: D.Mel-2 cells from Drosophila
Reagent: long dsRNA against Drosophila genes
Treatment: infection with dengue virus type 2; dose and infection time not stated
Measurement: 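Per well on two replicate plates, imaging gave the percent of cells positive for viral envelope protein, ranked by infection, and a nuclear count of cells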
Scale: infection score: higher = more virus-infected cells; cell count: higher = more cells in the well
Active means: 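Low infection ranks in the two replicates (chance level up to 0.065) followed by a retest with a 1.5-fold or larger significant decrease, p below 0.05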
Calls: active = confirmed: knock-down lowers infection; inactive = not picked or not confirmed

Target gene | dsRNA no. | infection score, replicate 1 | infection score, replicate 2 | cell count, replicate 1 | cell count, replicate 2 | Call
CG9003 | 1 | 7.56 | 3.78 | 6338 | 6429 | inactive
Phae2 | 1 | 6.91 | 8.18 | 6050 | 6391 | inactive
Or83c | 1 | 4.52 | 5.62 | 6328 | 6047 | inactive
CysRS | 1 | 4.49 | 4.69 | 5610 | 5763 | inactive
CysRS | 2 | 6.29 | 7.95 | 6199 | 5559 | inactive
Or94a | 1 | 1.07 | 1.21 | 5891 | 6626 | inactive
CG4332 | 1 | 7.21 | 6.37 | 7049 | 6390 | inactive
CG31199 | 1 | 3.04 | 15.6 | 6679 | 6304 | inactive
Pgant5 | 1 | 3.54 | 2.12 | 5683 | 6171 | inactive
Ref1 | 1 | 15.1 | 11.9 | 5436 | 6186 | inactive
Ref1 | 2 | 2.33 | 6.82 | 5961 | 6558 | inactive
PIP4K | 1 | 2.33 | 0.6 | 6018 | 499 | inactive
CG31058 (retired record) | 1 | 2.66 | 18.1 | 5980 | 4233 | inactive
CG31058 (retired record) | 2 | 3.15 | 13.9 | 5991 | 5981 | inactive
CG12341 | 1 | 1.83 | 8.67 | 6705 | 6423 | inactive
CG14086 | 1 | 6.51 | 5.92 | 6114 | 6423 | inactive
DNAlig4 | 1 | 0.88 | 2.67 | 6330 | 6356 | inactive
CG15754 | 1 | 0.9 | 1.47 | 6118 | 6544 | inactive
CG15754 | 2 | 2.49 | 9.81 | 6665 | 6246 | inactive
CG14410 | 1 | 6.04 | 3.89 | 6454 | 6633 | inactive
CG11699 | 1 | 11 | 12 | 4916 | 4984 | inactive
CG11699 | 2 | 9.24 | 14.9 | 6200 | 6288 | inactive
CG7987 | 1 | 3.87 | 5.76 | 6403 | 6700 | inactive
CG7987 | 2 | 14.2 | 9.87 | 6145 | 5905 | inactive
thetaTry | 1 | 14.5 | 20.6 | 6062 | 5821 | inactive
thetaTry | 2 | 20.7 | 13.6 | 6499 | 6086 | inactive
Kr-h1 | 1 | 7.04 | 1.82 | 6437 | 6327 | inactive
Kr-h1 | 2 | 11.2 | 0.86 | 5991 | 6594 | inactive
Kr-h1 | 3 | 2.96 | 2.18 | 6075 | 5684 | inactive
CG10357 | 1 | 1.02 | 2.67 | 5994 | 6371 | inactive
CG14111 | 1 | 3.54 | 4.72 | 6124 | 6718 | inactive
CG14111 | 2 | 30.5 | 9.93 | 4991 | 6768 | inactive
Osi17 | 1 | 8.5 | 6.74 | 6150 | 6583 | inactive
Ugt49B2 | 1 | 12.6 | 9.27 | 5665 | 5956 | inactive
Ugt49B2 | 2 | 6.07 | 16.4 | 2849 | 4987 | inactive
CG12438 | 1 | 5.33 | 8.38 | 6346 | 1814 | inactive
mRpS18C | 1 | 9.77 | – | 4361 | 226 | inactive
mRpS18C | 2 | 5.26 | 7.77 | 6448 | 6719 | inactive
CG14221 | 1 | 4.2 | – | 6531 | – | inactive
CR31846 (retired record) | 1 | 5.72 | 4.73 | 6068 | 6147 | inactive
CG42729 | 1 | 14.9 | 11.2 | 5280 | 5291 | inactive
Cp36 | 1 | 1.59 | 1.23 | 6608 | 6687 | inactive
Cp36 | 2 | 7.39 | 4.18 | 6917 | 6384 | inactive
Rel | 1 | 9.96 | 15.1 | 3917 | 5803 | inactive
Mnr | 1 | 3.18 | 1.26 | 6202 | 5939 | inactive
Mnr | 2 | 4.53 | 4.86 | 6473 | 6548 | inactive
Mnr | 3 | 3.31 | 2.36 | 5679 | 6686 | inactive
TfIIA-S | 1 | 0.4 | 1.68 | 5309 | 5666 | inactive
CIA30 | 1 | 1.72 | 4.99 | 6639 | 6352 | inactive
Su(z)2 | 1 | 2.19 | 2.39 | 6477 | 6782 | inactive
wun2 | 1 | 3.18 | 27.6 | 6515 | 5769 | inactive
nmd | 1 | 2.07 | 16.4 | 7013 | 6034 | inactive
nmd | 2 | 3.2 | 27.2 | 6664 | 5495 | inactive
CG12268 | 1 | 1.71 | 1.28 | 5500 | 6466 | inactive
CG12268 | 2 | – | 2.04 | 260 | 637 | inactive
AstA | 1 | 3.99 | – | 6541 | 406 | inactive
CG31926 | 1 | 2.5 | 5.21 | 6212 | 6243 | inactive
CG31926 | 2 | 12.8 | – | 5659 | 243 | inactive
